System: T2 cells
Assay: Cytotoxicity test (51Cr release) of hdm2 81-88-specific CTL on peptide-loaded T2 target cells (peptide titration, peptide specificity)
Assay type: cell-based, human
Settings: CTL lines A2 81 and CD8×A2 K^b 81; 4-hour test

**Q.** For “Flu M1 58-66: peptide 58-66 of the A/PR/8/34 influenza virus matrix protein M1, positive control [reference compound]”, which “lysis of peptide-loaded T2 cells by both hdm2 81-88-specific CTL lines” value is on record?
**A.** Its value is “not recognized”.
